Results: ChEMBL document CHEMBL2163206, “New nitrogen containing substituents at the indole-2-carboxamide yield high potent and broad spectrum indolylarylsulfone HIV-1 non-nucleoside reverse transcriptase inhibitors” (J Med Chem, 2012)

Test system: Human immunodeficiency virus type 1 reverse transcriptase (Human immunodeficiency virus 1), Q72547 [L100I]
Assay: Potency index, ratio of IC50 for nevirapine to IC50 for compound against HIV1 reverse transcriptase L100I mutant RNA-dependent DNA polymerase activity using poly(rA)/oligo(dT)10:1 and [3H]-dTTP substrate

Cc1cc(C)cc(S(=O)(=O)c2c(C(=O)NCc3cccnc3)[nH]c3ccc(Cl)cc23)c1
Ratio IC50: > 1000
